A mixed list of measured activities; the numbers were collected in NIAID ChemDB.

Shared fields: tests in culture; agent: Mycobacterium tuberculosis

An empty or dashed field is not shown.

compound	strain or isolate	dose	read-out	read by	mutations	value
Cc1ccc(NCCN(C)C)c2c(=O)c3cc(O)ccc3oc12	RMP-R		MIC			12.5 µg/mL
O=C1CCCCC1C(Nc1nc(-c2ccc(O)cc2)cs1)c1cccc([N+](=O)[O-])c1	H37Rv		MIC	broth dilution / agar / visual reading		50 µg/mL
O=C(NCCCBr)c1csc(-c2csc(CCNC(=O)C(F)(F)F)n2)n1	H37Rv		MIC	BACTEC		≥12.8 µg/mL
O=C(c1ccc(-c2ccc(Br)cc2)cc1)c1ccc([N+](=O)[O-])cc1	ATCC 27294		MIC			≤2 µg/mL
CN[C@@H]1[C@H](O[C@H]2[C@H](O[C@H]3[C@H](O)[C@@H](O)[C@H](N=C(N)N)[C@@H](O)[C@@H]3N=C(N)N)O[C@@H](C)[C@]2(O)C=O)O[C@@H](CO)[C@H](O)[C@H]1O	M8		MIC	resazurin	MDR	>8 µg/mL
CCOC(=O)c1ccc2nc(-c3ccc(N4CCOCC4)cc3)[nH]c2c1	H37Rv		MIC	resazurin / fluorescence		>100 µM
Cc1ccc(-n2cc(CS(=O)(=O)C3c4ccccc4-c4ccccc43)nn2)cc1	Specimen 192		MIC99	broth dilution		125 µM
C[C@]1(COc2cccc(-c3ncc(-c4ccc(Cl)cc4)o3)c2)Cn2cc([N+](=O)[O-])nc2O1	H37Rv		MIC			0.78 µg/mL
COc1c(O)cc2oc3cc(OC(C)=O)c(CCC(C)C)c(O)c3c(=O)c2c1CCC(C)C	H37Ra		MIC	resazurin		3.12 µg/mL
O=C1NNC(c2ccc(Cl)cc2)c2cc(Cl)c(Cl)cc21	H37Rv		MIC bound	BACTEC		>6.25 µg/mL
C[C@]1(COc2ccc(N3CCC(COCc4cccc(Cl)c4)CC3)cc2)Cn2cc([N+](=O)[O-])nc2O1	H37Rv		MIC			0.024 µg/mL
COC(=O)c1nc(Cl)nc(Cl)c1Cl		6.25 µg/mL	inhibition	resazurin		9%
Fc1ccc(-n2cc(CNC3c4ccccc4-c4ccccc43)nn2)cc1Cl	H37Rv		MIC99	broth dilution		>256 µM
C/C(=N\Nc1ccc([N+](=O)[O-])cn1)C(=O)O	H37Rv		MIC	BACTEC		≥12.5 µg/mL
NC(=O)c1cncc(-n2ccnc2)n1	Ethionamide-resistant		MIC			1000 µg/mL
CC(C)NCCCNC1=C(Cl)C(=O)c2ccccc2C1=O	H37Rv		MIC	BACTEC		>12.5 µg/mL
CC1CN(c2cncc(C#N)n2)CC(C)O1	Ethionamide-resistant		MIC			500 µg/mL
CCCCCCn1c(=O)c2c3c(cnc2n(CCCCCC)c1=O)C(=O)C1=C(C3=O)C2CCC1C2	H37Rv		EC99	luminescence	pSMT1 luciferase reporter plasmid	11.6 µg/mL
CCOC(=O)Nc1cc(NC/C(=C\O)c2ccc(C)cc2)c([N+](=O)[O-])c(N)n1	H37Rv	12.5 µg/mL	inhibition			0%
O=[N+]([O-])c1cn2c(n1)OC[C@@H](OCc1ccc(C#Cc3ccc(C(F)(F)F)cc3)cc1)C2			MIC90	resazurin		0.02 µM
C[C@]1(COc2ccc(N3CCC(C/C=C/c4ccc(C(F)(F)F)cc4)CC3)cc2)Cn2cc([N+](=O)[O-])nc2O1	H37Rv		MIC			0.006 µg/mL
CCOC(=O)c1ccc2c(c1)nc(-c1ccc(Cl)cc1)n2CCN1CCCOC1	H37Rv		MIC	resazurin / fluorescence		100 µM
C=C(C)[C@H]1CN[C@H](C(=O)O)[C@H]1CC(=O)O	H37Rv		MIC	BACTEC		≥12.8 µg/mL
O=[N+]([O-])c1cc(F)ccc1-n1cc(CSC2c3ccccc3-c3ccccc32)nn1	H37Rv		MIC99	broth dilution		>239 µM
Cc1cc2no[n+]([O-])c2cc1C	H37Rv	6.25 µg/mL	inhibition	resazurin		100%
CC[C@@H](CO)NCCN[C@@H](CC)CO	M16		MIC	resazurin	MDR	>8 µg/mL
COc1cc(-n2cc(CS(=O)(=O)C3c4ccccc4-c4ccccc43)nn2)cc(OC)c1OC	H37Rv		MIC99	broth dilution		52.35 µM
NNC(=O)c1cccc(C(=O)NN)c1	H37Rv	12.5 µg/mL	inhibition	BACTEC		12%
CO[C@H]1/C=C/O[C@@]2(C)Oc3c(C)c(O)c4c(O)c(c(/C=N/N5CCN(C)CC5)c(O)c4c3C2=O)NC(=O)/C(C)=C\C=C\[C@H](C)[C@H](O)[C@@H](C)[C@@H](O)[C@@H](C)[C@H](OC(C)=O)[C@@H]1C	H37Rv		MBC			>160 µg/mL
CN(Cc1cc2cc(Cl)ccc2o1)C1CCN(c2ccc(OC[C@@]3(C)Cn4cc([N+](=O)[O-])nc4O3)cc2)CC1	H37Rv		MIC			0.024 µg/mL
CCOC(=O)c1ccc2c(c1)nc(-c1ccc([N+](=O)[O-])cc1)n2CCN1CCCOC1	H37Rv		EC50	resazurin / fluorescence		>100 µM
N#Cc1cncc(-n2cncn2)n1	SP 607		MIC			500 µg/mL
C[C@]1(COc2ccc(N3CCC(COCc4cccc(C(F)(F)F)c4)CC3)cc2)Cn2cc([N+](=O)[O-])nc2O1	H37Rv		MIC			0.024 µg/mL
CC1CCCCN1c1cncc(C(N)=O)n1	Capreomycin-resistant		MIC			500 µg/mL
CCOC(=O)Nc1cc(N)c(N)c(N)c1	H37Rv		EC50			>12.5 µg/mL
COc1cc(C2=NN(C(=O)COc3ccc4ccccc4c3)[C@H](c3ccc(O)cc3)C2)c(C)cc1OCC(=O)O	H37Rv	6.25 µg/mL	inhibition			61%
NNC(=O)c1ccncc1	M16		MIC	resazurin		2 µg/mL
CCOC(=O)Nc1cc(NC(C)[C@H](C)c2ccccc2)c(N)c(N)n1	H37Rv		EC50			<12.5 µg/mL
CCOC(=O)c1ccc2c(c1)nc(-c1ccccc1)n2CCN1CCCOC1	H37Rv		EC90	resazurin / fluorescence		>100 µM
CCn1c(=O)c2c3c(cnc2n(CC)c1=O)C(=O)C1=C(C3=O)C2CCC1CC2	H37Rv		EC99	luminescence	pSMT1 luciferase reporter plasmid	12.06 µg/mL
COC1(OC)CCCCC2c3cccc(OC(C)=O)c3C21OC(C)=O	H37Rv		MIC bound	BACTEC		>12.5 µg/mL
O=[N+]([O-])c1cn2c(n1)OC[C@@H](OCc1ccc(Cc3ccc(C(F)(F)F)nc3)cc1)C2			MIC90	resazurin		0.045 µM
CCOc1cc2oc3cc(O)c(CCC(C)C)c(O)c3c(=O)c2c(CCC(C)C)c1OC	M22		MIC	resazurin		3.12 µg/mL
COc1ccc(C(Nc2nc(-c3ccc(C)cc3)cs2)C2CCCCC2=O)cc1	H37Rv		MIC	broth dilution / agar / visual reading		50 µg/mL
CCCc1[nH]n(-c2cccc([N+](=O)[O-])c2)c(=O)c1N=Nc1ccc(Cl)cc1	H37Rv		MIC	BACTEC		≥12.8 µg/mL
CO[C@H]1/C=C/O[C@@]2(C)Oc3c(C)c(O)c4c(O)c(c(/C=N/N5CCN(C)CC5)c(O)c4c3C2=O)NC(=O)/C(C)=C\C=C\[C@H](C)[C@H](O)[C@@H](C)[C@@H](O)[C@@H](C)[C@H](OC(C)=O)[C@@H]1C	M27		MIC	resazurin	MDR	>2 µg/mL
COc1ccc(N2C(=O)C(=O)N(c3ccc(N=Nc4ccccc4)cc3)C2=S)cc1	H37Rv	12.5 µg/mL	inhibition	BACTEC		59%
Cn1c(=O)c2c3c(cnc2n(C)c1=O)C(=O)C1=C(C3=O)C2CCC1CC2	H37Rv		EC99	luminescence	pSMT1 luciferase reporter plasmid	15.43 µg/mL
O=C(c1ccccc1)c1ccc(-c2ccc(Br)cc2)cc1	ATCC 27294		MIC			≥32 µg/mL
CCOC(=O)c1ccc2c(c1)nc(-c1cccc(-c3ccc(F)cc3)c1)n2CCN1CCCC1=O	H37Rv		EC90	resazurin / fluorescence		83.63 µM
O=[N+]([O-])c1cn2c(n1)OC[C@@H](OCc1ccc(N3CCN(c4ccc(OC(F)(F)F)cc4)CC3)nc1)C2			MIC90	low oxygen		0.9 µM
Cn1c(=O)c2c3c(cnc2n(C)c1=O)C(=O)C1=C(C3=O)C2CCC1C2	H37Rv		EC90	luminescence	pSMT1 luciferase reporter plasmid	5.87 µg/mL
CCOC(=O)Nc1cc(N)c2[nH]c(-c3ccccc3)nc2n1	H37Rv		EC50			>12.5 µg/mL
COc1ccc(-c2csc(NC(c3ccc(Cl)cc3)C3CCCCC3=O)n2)cc1	H37Rv		MIC	broth dilution / agar / visual reading		50 µg/mL
O=C1C(c2ccccc2)C2C=CC(C2)N1O	H37Rv	12.5 µg/mL	inhibition	BACTEC		21%
CN(C)c1ccc(C(Nc2nc(-c3ccc(O)cc3)cs2)C2CCCCC2=O)cc1	H37Rv		MIC	broth dilution / agar / visual reading		50 µg/mL
CC1CCCCN1c1cncc(/C(N)=N/O)n1	Isoniazid-resistant		MIC			250 µg/mL
C/C=C(\C)c1cc(=O)c2c(C)cc3c(c2o1)C(=O)c1c(O)c([C@H]2C[C@](C)(N(C)C)[C@H](OC(C)=O)[C@H](C)O2)cc([C@H]2C[C@@H](N(C)C)[C@H](OC(C)=O)[C@@H](C)O2)c1C3=O	H37Rv		MIC	BACTEC		≥12.8 µg/mL
CC1CN(c2cncc(C(N)=O)n2)CC(C)O1	H37Rv		MIC			250 µg/mL
C[C@]1(COc2ccc(N3CCN(Cc4cc5ccc(C(F)(F)F)cc5o4)CC3)cc2)Cn2cc([N+](=O)[O-])nc2O1	H37Rv		MIC			0.024 µg/mL
CCOC(=O)Nc1cc(NC(=O)OCC)c2c(c1C)NC(C)C(c1ccccc1)=N2	H37Rv		EC50			>12.5 µg/mL
O=c1c2ccccc2c(=O)c2c1ccc1[nH]c3c(ccc4c(=O)c5ccccc5c(=O)c43)[nH]c12	H37Rv	12.5 µg/mL	inhibition	BACTEC		30%
Cc1ccc(-c2csc(NC(c3cccc([N+](=O)[O-])c3)C3CCCCC3=O)n2)cc1	H37Rv		MIC	broth dilution / agar / visual reading		50 µg/mL
CC(=O)Oc1ccc(C(=O)c2ccc(-c3ccc(Br)cc3)cc2)cc1	ATCC 27294		MIC			≥32 µg/mL
NC(=O)c1cncc(-n2cncn2)n1	Capreomycin-resistant		MIC			2000 µg/mL
CCOC(=O)c1ccc2c(c1)nc(-c1ccc(N3CCOCC3)cc1)n2CCN1CCCC1=O	H37Rv		EC50	resazurin / fluorescence		61.45 µM
CCn1c(=O)c2c3c(cnc2n(CC)c1=O)C(=O)C1=C(C3=O)C2CCC1C2	H37Rv		EC99	luminescence	pSMT1 luciferase reporter plasmid	9.21 µg/mL
O=[N+]([O-])c1cn2c(n1)O[C@@H](COc1ccc(N3CCC(CCc4ccc(OC(F)(F)F)cc4)CC3)cc1)C2	H37Rv		MIC			0.024 µg/mL
CCOC(=O)c1ccc2c(c1)nc(-c1ccc(OC(F)(F)F)cc1)n2CCN1CCCC1=O	H37Rv		MIC	resazurin / fluorescence		>100 µM
O=C(CNC(=O)Nc1ccc(Cl)c(Cl)c1)NNC(=O)Nc1ccc(F)c(Cl)c1	H37Rv		MIC bound	BACTEC		>12.5 µg/mL
NCC[C@H](O)C(=O)N[C@@H]1C[C@H](N)[C@@H](O[C@H]2O[C@H](CN)[C@@H](O)[C@H](O)[C@H]2O)[C@H](O)[C@H]1O[C@H]1O[C@H](CO)[C@@H](O)[C@H](N)[C@H]1O	H37Rv		EC90	resazurin / fluorescence		>100 µM
NNCc1c(C(=O)O)oc2ccccc12	H37Rv	12.5 µg/mL	inhibition	BACTEC		91%
CC(=O)c1c(OCC(N)=O)cc2oc3cc(OCC(N)=O)c(CCC(C)C)c(O)c3c(=O)c2c1CCC(C)C	H37Ra		MIC	resazurin		>200 µg/mL
O=c1[nH]oc(NS(=O)(=O)c2ccccc2)c1C1CCCCC1	H37Rv		MIC bound	BACTEC		>12.5 µg/mL
O=[N+]([O-])c1cn2c(n1)OC[C@@H](OCc1ccc(CNc3ccc(OC(F)(F)F)cc3)cc1)C2			MIC90	low oxygen		0.73 µM
Cc1cc2c(c3c1c(=O)c1ccccc1n3C)C=CC(C)(C)O2	KM-R		MIC			12.5 µg/mL
O=[N+]([O-])c1cn2c(n1)OC[C@@H](OCc1ccc(C#Cc3ccc(C(F)(F)F)cc3)cn1)C2			MIC90	low oxygen		12 µM
CN1CSC(=S)N(c2ccc(Cl)cc2)C1	H37Rv		MIC bound	BACTEC		>12.5 µg/mL
OCNC(=S)c1cncc(-n2ccnc2)n1	Ethionamide-resistant		MIC			500 µg/mL

MIC50, MIC90 and the like: level of inhibition, or share of isolates inhibited. Inhibition is in % at the dose shown (toxicity tests: loss of growth or viability). Neighbouring rows are from separate reports. ECn: concentration that inhibits the pathogen or its effect by n%. MIC bound: limit read from a one-dose screen.